Results of unrelated studies side by side (data: NIAID ChemDB).

All rows: cytotoxicity tests; cells: H9; endpoint: CC50

An empty or dashed field is not shown. CCn: concentration that lowers growth or viability of the cells by n%. Conditions beyond the fields shown may differ between rows.

C=C(C)[C@@H]1CC[C@]2(C(=O)OC)CC[C@]3(C)[C@H](CC[C@@H]4[C@@]5(C)CC[C@H](NC(=O)CC(C)(C)CC(=O)O)C(C)(C)[C@@H]5CC[C@]43C)[C@@H]12 ; result: 23.5 µM
CC(C)(CC(=O)O)CC(=O)NC[C@]12CCC(C)(C)C[C@H]1C1=CC[C@@H]3[C@@]4(C)CC[C@H](OC(=O)CC(C)(C)CC(=O)O)C(C)(C)[C@@H]4CC[C@@]3(C)[C@]1(C)CC2 ; read by: cell count ; result: 21.2 µg/mL
C=C(C)[C@@H]1CC[C@]2(COC(=O)CC(C)(C)C(=O)O)CC[C@@H]3[C@H](CC[C@H]4[C@H]3CC[C@H]3C(C)(C)[C@@H](OC(=O)CC(C)(C)C(=O)O)CC[C@]43C)[C@@H]12 ; result: 33.6 µM
C/C=C(/C)C(=O)OC1c2cc3c(c4c2[C@](C(=O)C(=O)OC)(CO4)/C(=C\C(=O)OC)C[C@@H](C)[C@H]1C)OCO3 ; result: >100 µg/mL
C[C@H]1[C@H](C)CC[C@]2(C(=O)O)CC[C@]3(C)C(=CC[C@@H]4[C@@]5(C)CC[C@H](OC(=O)C(C)(C)CC(=O)O)C(C)(C)[C@@H]5CC[C@]43C)[C@H]12 ; result: 30.7 µM
C=C(C)[C@@H]1CC[C@]2(CO)CC[C@]3(C)[C@H](CC[C@@H]4[C@@]5(C)CC[C@@H](O)C(C)(C)[C@@H]5CC[C@]43C)[C@@H]12 ; result: 12.3 µM
Cc1cn([C@H]2C[C@H](N=[N+]=[N-])[C@@H](CO)O2)c(=O)[nH]c1=O ; result: 500 µg/mL
C[C@@H]1CC[C@]2(C(=O)O)CC[C@]3(C)C(=CC[C@@H]4[C@@]5(C)CC[C@H](O)C(C)(C)[C@@H]5CC[C@]43C)[C@@H]2[C@]1(C)O ; result: 48.9 µM
CCN(CC)Cc1cc2ccc3c(c2oc1=O)[C@@H](OC(=O)C12CCC(C)(C(=O)O1)C2(C)C)[C@@H](OC(=O)C12CCC(C)(C(=O)O1)C2(C)C)C(C)(C)O3 ; result: 43.01 µM
C=C(C)[C@@H]1CC[C@]2(CNC(=O)CC3(CC(=O)O)CCCC3)CC[C@]3(C)[C@H](CC[C@@H]4[C@@]5(C)CC[C@H](NC(=O)CC6(CC(=O)O)CCCC6)C(C)(C)[C@@H]5CC[C@]43C)[C@@H]12 ; result: 15 µM
C=C(C)[C@@H]1CC[C@]2(C(=O)O)CC[C@]3(C)[C@H](CC[C@@H]4[C@@]5(C)CC[C@@H](NC(=O)COCC(=O)O)C(C)(C)[C@@H]5CC[C@]43C)[C@@H]12 ; result: 174.9 µM
C/C=C(/C)C(=O)OC1c2cc3c(c(OC)c2-c2c(cc4c(c2OC)OCO4)C[C@H](C)[C@H]1C)OCO3 ; result: 40 µg/mL
O=C1CCC(=O)N1CCCCCCc1ccc2c3cc(CO)ccc3c3cc(CO)ccc3c2c1 ; read by: trypan blue ; result: 10 µM
CC(CC(=O)O)CC(=O)O[C@H]1CC[C@]2(C)[C@H]3CC[C@@H]4[C@@H]5CC(C)(C)CC[C@]5(C(=O)O)CC[C@@]4(C)[C@]3(C)CC[C@H]2C1(C)C ; read by: cell count ; result: 12.3 µg/mL
COc1cc2c(c(OC)c1OC)-c1c(cc(OC)c(OC)c1OC)C[C@](C)(O)[C@@H](C)C2 ; result: 9 µg/mL
CC1(C)CC[C@]2(C(=O)O)CC[C@]3(C)C(=CCC4[C@@]5(C)CC[C@H](OC(=O)CC6(CC(=O)O)CCCC6)C(C)(C)C5CC[C@]43C)C2C1 ; read by: cell count ; result: 4.7 µg/mL
CC(=O)OC[C@]12[C@H](OC(C)=O)[C@H](OC(=O)c3cccnc3)[C@@H]3[C@@H](OC(=O)c4ccoc4)[C@@]14O[C@@]3(C)COC(=O)c1cccnc1[C@@H](C)[C@H](C)C(=O)O[C@@H]([C@H](OC(C)=O)[C@@H]2OC(C)=O)C4(C)O ; result: 1.95 µg/mL
CC(=O)OCc1cc2ccc3c(c2oc1=O)[C@@H](OC(=O)[C@@]12CC[C@@](C)(C(=O)O1)C2(C)C)[C@@H](OC(=O)[C@@]12CC[C@@](C)(C(=O)O1)C2(C)C)C(C)(C)O3 ; result: 3.34 µM
CC1(C)Oc2ccc3ccc(=O)oc3c2[C@H](OC(=O)C23CCC(C)(C(=O)O2)C3(C)C)[C@H]1OC(=O)C12CCC(C)(C(=O)O1)C2(C)C ; result: 160 µM
COc1c(Br)c2c(c(OC)c1OC)-c1c(c(Br)c3c(c1OC)OCO3)C[C@@H](C)[C@@H](C)C2 ; result: 20 µg/mL
C[C@H]1[C@H](C)CC[C@]2(C(=O)O)CC[C@]3(C)C(=CC[C@@H]4[C@@]5(C)CC[C@H](OC(=O)CC(C)(C)CC(=O)O)C(C)(C)[C@@H]5CC[C@]43C)[C@H]12 ; result: 7 µM
C=C(C)[C@@H]1CC[C@]2(C(=O)O)CC[C@]3(C)[C@H](CC[C@@H]4[C@@]5(C)CC[C@H](OC(=O)CC(C)(C)C(=O)O)C(C)(C)[C@@H]5CC[C@]43C)[C@@H]12 ; result: 7 µM
CC(=O)O[C@@H]1[C@H](OC(=O)CC(C)C)c2c(ccc3ccc(=O)oc23)OC1(C)C ; result: 79.56 µM
Cc1cn([C@H]2C[C@H](N=[N+]=[N-])[C@@H](CO)O2)c(=O)[nH]c1=O ; read by: cell count ; result: 500 µg/mL
C=C(CO)[C@@H]1CC[C@]2(CO)CC[C@]3(C)[C@H](CC[C@@H]4[C@@]5(C)CC[C@H](O)C(C)(C)[C@@H]5CC[C@]43C)[C@@H]12 ; result: >140.5 µM
Cc1cn([C@H]2C[C@H](N=[N+]=[N-])[C@@H](CO)O2)c(=O)[nH]c1=O ; result: >1873 µM
C=C(C)[C@@H]1CC[C@]2(CN)CC[C@]3(C)[C@H](CC[C@@H]4[C@@]5(C)CC[C@H](N)C(C)(C)[C@@H]5CC[C@]43C)[C@@H]12 ; result: 0.52 µM
CC(=O)OC[C@]12[C@H](OC(C)=O)[C@H](OC(C)=O)[C@@H]3[C@@H](OC(C)=O)[C@@]14O[C@@]3(C)COC(=O)c1cccnc1[C@@H](C)[C@H](C)C(=O)O[C@@H]([C@H](OC(=O)c1ccccc1)[C@@H]2OC(C)=O)C4(C)O ; result: >100 µg/mL
CC(C)(CC(=O)O)CC(=O)O[C@H]1CC[C@]2(C)[C@H]3CC[C@@H]4[C@@H]5CC(C)(C)CC[C@]5(C(=O)O)CC[C@@]4(C)[C@]3(C)CC[C@H]2C1(C)C ; read by: cell count ; result: 8.3 µg/mL
CC(C)CC(=O)OC1C(OC(=O)c2cccc(Cl)c2)c2c(ccc3ccc(=O)oc23)OC1(C)C ; result: 13.02 µM
C=C(C)[C@@H]1CC[C@]2(C(=O)O)CC[C@]3(C)[C@H](CC[C@@H]4[C@@]5(C)CC[C@H](NC(=O)COCC(=O)O)C(C)(C)[C@@H]5CC[C@]43C)[C@@H]12 ; result: 38.7 µM
CC1(C)Oc2ccc3ccc(=O)oc3c2[C@H](OC(=O)C23CCC(C)(C(=O)O2)C3(C)C)[C@@H]1OC(=O)C12CCC(C)(C(=O)O1)C2(C)C ; result: 159 µM
COc1c2c(cc3c1-c1c(cc4c(c1OC)OCO4)C[C@H](C)[C@H](C)C3)OCO2 ; result: 40 µg/mL
CC1(C)C=Cc2c(ccc3ccc(=O)oc23)O1 ; result: 17.5 µM
C[C@H]1[C@H](C)CC[C@]2(C(=O)O)CC[C@]3(C)C(=CC[C@@H]4[C@@]5(C)CC[C@H](OC(=O)CCC(=O)O)C(C)(C)[C@@H]5CC[C@]43C)[C@H]12 ; result: 44.9 µM

Repeating the first 3 entries:

smiles | read by | result
C=C(C)[C@@H]1CC[C@]2(C(=O)OC)CC[C@]3(C)[C@H](CC[C@@H]4[C@@]5(C)CC[C@H](NC(=O)CC(C)(C)CC(=O)O)C(C)(C)[C@@H]5CC[C@]43C)[C@@H]12 |  | 23.5 µM
CC(C)(CC(=O)O)CC(=O)NC[C@]12CCC(C)(C)C[C@H]1C1=CC[C@@H]3[C@@]4(C)CC[C@H](OC(=O)CC(C)(C)CC(=O)O)C(C)(C)[C@@H]4CC[C@@]3(C)[C@]1(C)CC2 | cell count | 21.2 µg/mL
C=C(C)[C@@H]1CC[C@]2(COC(=O)CC(C)(C)C(=O)O)CC[C@@H]3[C@H](CC[C@H]4[C@H]3CC[C@H]3C(C)(C)[C@@H](OC(=O)CC(C)(C)C(=O)O)CC[C@]43C)[C@@H]12 |  | 33.6 µM